Like-named read-outs stand apart in the source and are kept apart here.
Assays:
BaIMPDH (wild-type) = BaIMPDH (wild-type) (Bacillus anthracis, UniProt A0A6L8P2U9); details: read-out: Ki,app
BaIMPDH L413V = BaIMPDH L413V (Bacillus anthracis, UniProt A0A6L8P2U9, L413V)
BaIMPDH L413A [1] = biological target: BaIMPDH L413A (Bacillus anthracis, UniProt A0A6L8P2U9, L413A)
BaIMPDH L413A [2] = details: L413A versus wild-type BaIMPDH

Work on `C[C@@H](Oc1cccc2c1ccc[n+]2[O-])c1cn(-c2ccc(Cl)cc2)nn1` yielded a Ki (BaIMPDH (wild-type)) of 0.069 µM.
`C=C(C)c1cccc(C(C)(C)NC(=O)Nc2ccc(Cl)cc2)c1` was tested, and the Ki (BaIMPDH (wild-type)) was 0.0068 µM.
`O=C(Cn1c(-c2nccs2)nc2ccccc21)Nc1ccc(Cl)cc1` was tested, and the Ki (BaIMPDH (wild-type)) was 0.107 µM.
For `NC(=O)c1ccc[n+]([C@@H]2O[C@H](COP(=O)(O)OP(=O)(O)OC[C@H]3O[C@@H](n4cnc5c(N)ncnc54)[C@H](O)[C@@H]3O)[C@@H](O)[C@H]2O)c1`, the “apparent Michaelis constant for NAD+, KmB” value (BaIMPDH L413V; L413V, [IMP] 1000 µM, brackets 95% confidence interval) was 3650 [ 2460 , 6100 ] µM, the Km (BaIMPDH L413V; read-out: Km(NAD^+), L413 V) was 3.3 mM and the “k7 (NAD^+ association with E-XMP*)” value (BaIMPDH L413A [1]; geometric mean) was 0.000917 μM^–1 s^–1. For the same molecule, the “k–2 (NAD^+ dissociation from E·IMP·NAD^+)” value (BaIMPDH L413A [1]; geometric mean) was 6.9 s^–1, the “k–7 (NAD^+ dissociation from E-XMP*·NAD^+)” value (BaIMPDH L413A [1]; geometric mean) was 4.12 s^–1 and the “k2 (NAD^+ association with E·IMP)” value (BaIMPDH L413A [1]; geometric mean of 18 best-fit values) was 0.00852 μM^–1 s^–1. It also gave a Kd (BaIMPDH L413A [1]; read-out: k–2/k2, NAD^+ and E·IMP) of 810 µM and a Kd (BaIMPDH L413A [1]; read-out: k–7/k7, NAD^+ and E-XMP*) of 4500 µM.
With `O=C(Cn1c(-c2ccccn2)nc2ccccc21)Nc1ccc2cc(Cl)c(Cl)cc2c1` the Ki (BaIMPDH (wild-type)) was 0.102 µM and the “change of affinity (Ki,app) in L413A” value (BaIMPDH L413A [2]) was 10 fold.
Molecule `CC(=O)c1cccc(C(C)(C)NC(=O)Nc2ccc(Cl)cc2)c1` has a Ki (BaIMPDH (wild-type)) of 0.053 µM.
Work on `CC(=O)c1cccc(CNC(=O)Nc2ccc(Cl)cc2)c1` yielded a Ki (BaIMPDH (wild-type)) of 2.01 µM.
Molecule `CC(Oc1cccc2ccccc12)C(=O)Nc1ccc(Br)cc1` (stereo not drawn) has a Ki (BaIMPDH (wild-type)) of 0.145 µM.
In the case of `CC(C(=O)Nc1ccc(Cl)cc1)n1c(-c2nccs2)nc2ccccc21` (stereo not drawn), the Ki (BaIMPDH (wild-type)) is reported as 0.062 µM.
With `NC(=O)C1=CN([C@@H]2O[C@H](COP(=O)(O)OP(=O)(O)OC[C@H]3O[C@@H](n4cnc5c(N)ncnc54)[C@H](O)[C@@H]3O)[C@@H](O)[C@H]2O)C=CC1` [NADH] the “k4 (NADH release)” value (BaIMPDH L413A [1]; lower limit (ΔSSQ = 5%)) was greater than 255 s^–1, the “k–4 (NADH association)” value (BaIMPDH L413A [1]; lower limit (ΔSSQ = 5%)) was greater than 0.67 μM^–1 s^–1 and the Kd (BaIMPDH L413A [1]; read-out: k4/k–4, NADH and E-XMP*) was 370 µM.
`O=C(Cn1c(-c2nccs2)nc2ccccc21)Nc1ccc2c(c1)OCCO2` showed a Ki (BaIMPDH (wild-type)) of 0.707 µM.
For `CC(=O)c1cccc(C(C)(C)NC(=O)Nc2ccc(Cl)c(C#N)c2)c1`, the Ki (BaIMPDH (wild-type)) was 0.067 µM.
`C=C(C)c1cccc(C(C)(C)NC(=O)Nc2ccc(Cl)c(C(=O)O)c2)c1` gave a Ki (BaIMPDH (wild-type)) of 0.018 µM.
For `CC(C)C(Oc1cccc2ccccc12)C(=O)Nc1ccc(Br)cc1` (stereo not drawn), the Ki (BaIMPDH (wild-type)) was 0.076 µM.
`CC(=O)c1cccc(C(C)NC(=O)Nc2ccc(Cl)cc2)c1` (stereo not drawn) showed a Ki (BaIMPDH (wild-type)) of 0.07 µM.
For `C=C(C)c1cccc(C(C)NC(=O)Nc2ccc(Cl)cc2)c1` (stereo not drawn), the Ki (BaIMPDH (wild-type)) was 0.173 µM.
Molecule `C=C(C)c1cccc(C(C)(C)NC(=O)Nc2cccc(Cl)c2)c1` has a Ki (BaIMPDH (wild-type)) of 0.283 µM.
